Data on 15 molecules can be found in patent publication US6608027B1, “Macrocyclic peptides active against the hepatitis C virus” (Boehringer Ingelheim (Canada) Ltd, priority 1999, dated 2003).

By UniProt entry, the sequences of proteins in these tests, tags left out. Residues count along the entry.
UniProt P26663, 1027-1657 limits assumed: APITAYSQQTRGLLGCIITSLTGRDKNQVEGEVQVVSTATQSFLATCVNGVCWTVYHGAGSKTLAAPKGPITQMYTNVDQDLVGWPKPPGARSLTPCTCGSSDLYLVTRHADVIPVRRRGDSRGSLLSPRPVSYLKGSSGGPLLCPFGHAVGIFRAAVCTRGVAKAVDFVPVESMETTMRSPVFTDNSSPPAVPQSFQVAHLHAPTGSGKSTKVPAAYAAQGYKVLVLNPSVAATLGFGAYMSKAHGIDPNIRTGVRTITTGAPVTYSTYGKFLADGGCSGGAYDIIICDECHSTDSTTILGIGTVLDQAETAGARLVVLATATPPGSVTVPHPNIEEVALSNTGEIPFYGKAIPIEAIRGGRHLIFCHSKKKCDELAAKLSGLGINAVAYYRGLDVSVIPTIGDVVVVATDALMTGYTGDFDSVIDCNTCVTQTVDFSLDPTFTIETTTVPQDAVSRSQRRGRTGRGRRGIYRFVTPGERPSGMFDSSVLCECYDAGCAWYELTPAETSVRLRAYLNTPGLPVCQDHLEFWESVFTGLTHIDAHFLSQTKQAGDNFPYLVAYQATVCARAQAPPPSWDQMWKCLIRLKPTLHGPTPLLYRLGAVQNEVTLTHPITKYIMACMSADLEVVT
UniProt P26663, 1658-1711 partner limits assumed: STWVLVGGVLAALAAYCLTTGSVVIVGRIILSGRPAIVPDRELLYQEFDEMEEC
UniProt P26663, 1027-1208 limits assumed: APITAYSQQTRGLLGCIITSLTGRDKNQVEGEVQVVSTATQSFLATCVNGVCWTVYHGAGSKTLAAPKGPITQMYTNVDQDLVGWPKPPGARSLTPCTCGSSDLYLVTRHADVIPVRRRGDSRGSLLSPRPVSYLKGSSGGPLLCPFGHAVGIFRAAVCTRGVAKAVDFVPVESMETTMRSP

The target in one assay is HCV NS3 protease type 1b (Hepatitis C virus genotype 1b, UniProt P26663). As to the kind of experiment: Recombinant HCV NS3 protease radiometric assay. The settings on record: read-out: enzyme activity (IC50 grade), asterisk; asterisk (*) = radiometric assay of Example 49. As to the method:
The substrate used for the HCV NS3 protease radiometric assay, DDIVPC-SMSYTW (SEQ. ID NO.: 2), is cleaved between the cysteine and the serine residues by the enzyme. The sequence DDIVPC-SMSYTW (SEQ. ID NO.: 2) corresponds to the NS5A/NS5B natural cleavage site in which the cysteine residue in P2 has been substituted for a proline. The peptide substrate DDIVPC-SMSYTW (SEQ. ID NO.: 2) and the tracer biotin-DDIVPC-SMS[^125I-Y]TW (SEQ. ID NO.: 3) were incubated with the recombinant NS3 protease in the absence or in the presence of inhibitors. The separation of substrate from products was performed by adding avidin-coated agarose beads to the assay mixture followed by filtration. The amount of SMS[^125I-Y]TW (SEQ. ID NO.: 4) product found in the filtrate (with or without inhibitor) allowed for the calculation of the percentage of substrate conversion and of the percentage of inhibition.
Assay buffer: 50 mM Tris-HCl, pH 7.5, 30% (w/v) glycerol, 2% (w/ v) CHAPS, 1 mg/mL BSA, 1 mM TCEP (TCEP added just prior to use from a 1 M stock solution in water).
Substrate: DDIVPC-SMSYTW (SEQ. ID NO.: 2), 25 μM final concentration (from a 2 mM stock solution in DMSO stored at −20° C. to avoid oxidation). […]
The filtrates were counted on a Packard® TopCount instrument using a ^125I-liquid protocol for 1 minute. The %inhibition was calculated with the following equation: […]

Assay [1] addresses His-NS3-NS4AFL (full-length NS3-NS4A protein complex) (Hepatitis C virus genotype 1b, UniProt P26663). As to the kind of experiment: Full-length NS3-NS4A heterodimer protein fluorogenic assay. As to conditions: read-out: enzyme activity (IC50 grade); fluorogenic assay of Example 48; no asterisk. The source says:
The NS2-NS5B-3′non coding region was cloned by RT-PCR into the pCR®3 vector (Invitrogen) using RNA extracted from the serum of an HCV genotype 1b infected individual (provided by Dr. Bernard Willems, Hôpital St-Luc, Montréal, Québec, Canada). The NS3-NS4A region (NS3-NS4AFL) was then subcloned by PCR into the pFastBac™ HTa baculovirus expression vector (Gibco/BRL). The vector sequence includes a region encoding a 28-residue N-terminal sequence which contains a hexahistidine tag. The Bac-to-Bac™ baculovirus expression system (Gibco/BRL) was used to produce the recombinant baculovirus. His-NS3-NS4AFL was expressed by infecting 10^6 Sf21 cells/mL with the recombinant baculovirus at a multiplicity of infection of 0.1-0.2 at 27°. Authentic auto-proteolysis occurs during expression to produce a non covalent and stable NS3-NS4A protein complex (referred to as full-length “FL”). The infected culture was harvested 48 to 64 h later by centrifugation at 4°. The cell pellet was homogenized in 50 mM NaPO4, pH 7.5, 40% glycerol (w/v), 2 mM β-mercaptoethanol, in presence of a cocktail of protease inhibitors. His-NS3-NS4AFL was then extracted from the cell lysate with 1.5% NP-40, 0.5% Triton X-100, 0.5M NaCl, and a DNase treatment. After ultracentrifugation, the soluble extract was diluted 4-fold and bound on a Pharmacia Hi-Trap Ni-chelating column. The His-NS3-NS4AFL was eluted in a >90% pure form (as judged by SDS-PAGE), using a 50 to 400 mM imidazole gradient. The His-NS3-NS4AFL was stored at −80° in 50 mM sodium phosphate, pH 7.5, 10% (w/v) glycerol, 0.5 M NaCl, 0.25 M imidazole, 0.1% NP-40. It was thawed on ice and diluted just prior to use.
The protease activity of His-NS3-NS4AFL was assayed in 50 mM Tris-HCl, pH 8.0, 0.25 M sodium citrate, 0.01% (w/v) n-dodecyl-β-D-maltoside, 1 mM TCEP. Five (5) μM of the internally quenched substrate anthranilyl-DDIVPAbu[C(O)—O]-AMY(3-NO2)TW-OH (SEQ. ID NO.: 1) in presence of various concentrations of inhibitor were incubated with 1.5 nM of His-NS3-NS4AFL for 45 min at 23°. […] The reaction was terminated with the addition of 1M MES, pH 5.8. Fluorescence of the N-terminal product was monitored on a Perkin-Elmer LS-50B fluorometer equipped with a 96-well plate reader (excitation wavelength: 325 nm, emission wavelength: 423 nm).
The % inhibition was calculated with the following equation:
100−[(fluoinh−fluoblank)/(fluoctl−fluoblank)×100]
A non-linear curve fit with the Hill model was applied to the inhibition-concentration data, and the 50% effective concentration (IC50) was calculated by the use of SAS software (Statistical Software System; SAS Institute, Inc. Cary, N.C.).

Turning to `COc1ccc2c(OC3CC4C(=O)NC5(C(=O)O)CC5C=CCCCCC(NC(=O)OC(C)(C)C)C(=O)N4C3)cc(-c3ccccc3)nc2c1` (stereo not drawn), the IC50 (usually the concentration that inhibits the measured activity by half) at HCV NS3 protease type 1b was over 1000 nM.

With `COc1ccc2c(O[C@@H]3C[C@H]4C(=O)N[C@]5(C(=O)O)C[C@H]5/C=C\CCC(=O)CC[C@H](NC(=O)OC(C)(C)C)C(=O)N4C3)cc(-c3ccccc3)nc2c1`, the IC50 in assay [1] is under 100 nM. As for `COc1ccc2c(O[C@@H]3C[C@H]4C(=O)N[C@]5(C(=O)O)C[C@@H]5CCCCCC[C@H](NC(=O)OC(C)(C)C)C(=O)N4C3)cc(-c3ccccc3)nc2c1`, the IC50 on HCV NS3 protease type 1b was over 1000 nM. Regarding `COc1ccc2c(O[C@@H]3C[C@H]4C(=O)N[C@]5(C(=O)O)C[C@H]5CCCCCC[C@H](NC(=O)OC(C)(C)C)C(=O)N4C3)cc(-c3ccccc3)nc2c1`, the IC50 in assay [1] was under 100 nM. Still for that read-out and setting: the figure for `COc1ccc2c(O[C@@H]3C[C@H]4C(=O)N[C@]5(C(=O)O)CC5CCNCCCC[C@H](NC(=O)OC(C)(C)C)C(=O)N4C3)cc(-c3ccccc3)nc2c1` (stereo partly drawn) is over 1000 nM; for `COc1ccc2c(O[C@@H]3C[C@H]4C(=O)N[C@]5(C(=O)O)CC5CCCOCCC[C@H](NC(=O)OC(C)(C)C)C(=O)N4C3)cc(-c3ccccc3)nc2c1` (stereo partly drawn) it is under 100 nM; for `COc1ccc2c(O[C@@H]3C[C@H]4C(=O)N[C@]5(C(=O)O)C[C@H]5CCCCCOC[C@H](NC(=O)OC(C)(C)C)C(=O)N4C3)cc(-c3ccccc3)nc2c1` it is under 100 nM. In the case of `COc1ccc2c(O[C@@H]3C[C@H]4C(=O)N[C@]5(C(=O)O)CC5CCCCCO[C@@H](C)[C@H](NC(=O)OC(C)(C)C)C(=O)N4C3)cc(-c3ccccc3)nc2c1` (stereo partly drawn), the IC50 in assay [1] is under 100 nM. On the same count and under the same terms, the figure for `COc1ccc2c(O[C@@H]3C[C@H]4C(=O)N[C@]5(C(=O)O)CC5CCCCNCC[C@H](NC(=O)OC(C)(C)C)C(=O)N4C3)cc(-c3ccccc3)nc2c1` (stereo partly drawn) is under 100 nM; for `COc1ccc2c(O[C@@H]3C[C@H]4C(=O)N[C@]5(C(=O)O)C[C@H]5CC/C=C/CO[C@@H](C)[C@H](NC(=O)OC(C)(C)C)C(=O)N4C3)cc(-c3ccccc3)nc2c1` it is under 100 nM.

Take `COc1ccc2c(O[C@@H]3C[C@H]4C(=O)N[C@]5(C(=O)O)CC5CCN(C(C)=O)CCCC[C@H](NC(=O)OC(C)(C)C)C(=O)N4C3)cc(-c3ccccc3)nc2c1` (stereo partly drawn): the IC50 in assay [1] lay in the range of 100 to 1000 nM. Same read-out and setting: as for `COc1ccc2c(O[C@@H]3C[C@H]4C(=O)N[C@]5(C(=O)O)CC5CCCCCCC[C@H](NC(=O)OC(C)(C)C)C(=O)N4C3)cc(-c3ccccc3)nc2c1` (stereo partly drawn), the figure is under 100 nM; as for `COc1ccc2c(O[C@@H]3C[C@H]4C(=O)N[C@]5(C(=O)O)C[C@@H]5/C=C\CCC(=O)CC[C@H](NC(=O)OC(C)(C)C)C(=O)N4C3)cc(-c3ccccc3)nc2c1`, under 100 nM; as for `COc1ccc2c(O[C@@H]3C[C@H]4C(=O)N[C@]5(C(=O)O)CC5CCN(C(=O)c5ccccc5)CCCC[C@H](NC(=O)OC(C)(C)C)C(=O)N4C3)cc(-c3ccccc3)nc2c1` (stereo partly drawn), 100 to 1000 nM.

On to `COc1ccc2c(O[C@@H]3C[C@H]4C(=O)N[C@]5(C(=O)O)CC5CC/C=C\CO[C@@H](C)[C@H](NC(=O)OC(C)(C)C)C(=O)N4C3)cc(-c3ccccc3)nc2c1` (stereo partly drawn), for which the IC50 in assay [1] lay in the range of 100 to 1000 nM.
